Results of unrelated studies side by side (data: NIAID ChemDB).

Percent inhibition refers to the dose given; in toxicity tests it is the harm to the cells. ICn is the concentration giving n% inhibition. Neighbouring rows are from separate reports. MIC bound comes from a single tested concentration. Blank or dashed fields: not listed here.

| SMILES | tested at | protein | agent | read by | test | strain or isolate | measure | value |
|---|---|---|---|---|---|---|---|---|
| O=C(O)c1ccc[nH]1 |  |  | Mycobacterium tuberculosis |  | culture | H37Rv | MIC | >100 µg/mL |
| Cc1ccc(-c2cncc(N3CCN(c4ccccn4)CC3)n2)cc1C | 1 µM | UL97 kinase | Cytomegalovirus |  | target |  | inhibition | <50% |
| CCN(CC)c1cc2oc3cc(N)cc(=N)c-3nc2cc1C |  |  | Mycobacterium tuberculosis |  | culture | KM-R | MIC | 0.8 µg/mL |
| OCc1ccc(-c2cncc(N3CCN(c4ccc(F)cc4)CC3)n2)cc1 |  | UL97 kinase | Cytomegalovirus |  | target |  | IC50 | <10 µM |
| Cc1ccc(S(=O)(=O)NC(=O)OCCc2c3ccccc3nc3ccccc23)cc1 |  |  | Mycobacterium tuberculosis | BACTEC | culture | H37Rv | MIC bound | ≤12.5 µg/mL |
| Cc1ccc(Nc2cc(Br)c3c4c(cc(=O)n3C)-c3ccccc3C(=O)c24)cc1 |  |  | Mycobacterium tuberculosis |  | culture | H37Rv | MIC | 25 µg/mL |
| c1ccc2c(-c3cncc(N4CCN(c5cnccn5)CC4)n3)cccc2c1 | 10 µM | UL97 kinase | Cytomegalovirus |  | target |  | inhibition | >15% |
| CC(NCCN)c1ccccc1 |  |  | Mycobacterium tuberculosis |  | culture | H37Rv | MIC | >100 µg/mL |
| Cc1cccc(-c2cncc(N3CCN(c4ccccc4F)CC3)n2)c1C |  | UL97 kinase | Cytomegalovirus |  | target |  | IC50 | <100 µM |
| Cc1ccc(S(=O)(=O)NC(=O)O/N=C/c2ccco2)cc1 | 12.5 µg/mL |  | Mycobacterium tuberculosis | BACTEC | culture | H37Rv | inhibition | -7% |
| CCN(CC)CCSc1ccc2ccccc2n1.Cl |  |  | Mycobacterium tuberculosis |  | culture | H37Rv | MIC | 100 µg/mL |
| Cc1cc2c(cc1C)[n+]([O-])c(-c1nc3ccccc3s1)c(N)[n+]2[O-] |  |  | Mycobacterium tuberculosis |  | culture | KM-R | MIC | 12.5 µg/mL |
| c1ccc(C2CCN(c3cncc(-c4cccc5ccccc45)n3)CC2)cc1 | 10 µM | UL97 kinase | Cytomegalovirus |  | target |  | inhibition | >15% |
| O=C(O)c1cccc(N=Nc2c(S(=O)(=O)O)ccc3c2C(=O)c2ccccc2C3=O)c1O |  |  | Mycobacterium tuberculosis | BACTEC | culture | H37Rv | MIC bound | >12.5 µg/mL |
| Fc1ccc(N2CCCCC2)c(NC(=S)c2ccncc2)c1 | 10 µM | DYRK3 |  | kinase activity | host protein |  | inhibition | 72.1% |
| Nc1ccccc1Oc1ccccc1N |  |  | Mycobacterium tuberculosis |  | culture | H37Rv | MIC | 50 µg/mL |
| COc1ccc2ccc3oc(=O)c(C)cc3c2c1 |  |  | Mycobacterium tuberculosis | BACTEC | culture | H37Rv | MIC bound | >6.25 µg/mL |
| Oc1ccc(N=Cc2ccccc2)cc1 |  |  | Mycobacterium tuberculosis |  | culture | H37Rv | MIC | 100 µg/mL |
| Clc1ccc(-c2cncc(N3CCN(c4ccccn4)CC3)n2)cc1 |  | UL97 kinase | Cytomegalovirus |  | target |  | IC50 | <100 µM |
| CC(=O)O.CC(=O)O.NCCCCC1NC(=O)C(CCCCN)NC1=O |  |  | Mycobacterium tuberculosis | BACTEC | culture | H37Rv | MIC bound | >12.5 µg/mL |
| OCCC1CCCCC1 |  |  | Mycobacterium tuberculosis |  | culture | H37Rv | MIC | >100 µg/mL |

Repeating the final 2 entries:

SMILES	tested at	protein	agent	read by	test	strain or isolate	measure	value
CC(=O)O.CC(=O)O.NCCCCC1NC(=O)C(CCCCN)NC1=O			Mycobacterium tuberculosis	BACTEC	culture	H37Rv	MIC bound	>12.5 µg/mL
OCCC1CCCCC1			Mycobacterium tuberculosis		culture	H37Rv	MIC	>100 µg/mL